Anti-infective test results gathered from many reports (values: NIAID ChemDB through PubChem).

Shared fields: tests in culture; organism: Mycobacterium avium complex; measure: MIC

Conditions beyond the fields shown may differ between rows. Blank or dashed fields: not listed here.

SMILES,strain or isolate,read by,result
NC[C@H]1O[C@H](O[C@H]2[C@H](O)[C@@H](O[C@H]3O[C@H](CO)[C@@H](O)[C@H](N)[C@H]3O)[C@H](N)C[C@@H]2N)[C@H](N)[C@@H](O)[C@@H]1O,TMC 1469,-,1.56 µg/mL
CO[C@H]1/C=C/O[C@@]2(C)Oc3c(C)c(O)c4c(O)c(c5c(c4c3C2=O)NC2(CCN(CC(C)C)CC2)N=5)=NC(=O)/C(C)=C\C=C\[C@H](C)[C@H](O)[C@@H](C)[C@@H](O)[C@@H](C)[C@H](OC(C)=O)[C@@H]1C,908-5,-,0.5 µg/mL
NCC[C@H](O)C(=O)N[C@@H]1C[C@H](N)[C@@H](O[C@H]2O[C@H](CN)[C@@H](O)[C@H](O)[C@H]2O)[C@H](O)[C@H]1O[C@H]1O[C@H](CO)[C@@H](O)[C@H](N)[C@H]1O,CH-2/HIV+,-,2.5 µg/mL
O=C(O)c1cn(C2CC2)c2c(F)c(N3CCNCC3)c(F)cc2c1=O,1172733,-,2 µg/mL
CC(C)Sc1nc2ccccc2[nH]1,MY330/88,-,500 µM
CC1CN(c2c(F)c(N)c3c(=O)c(C(=O)O)cn(C4CC4)c3c2F)CCN1C,1172733,-,1 µg/mL
CCn1cc(C(=O)O)c(=O)c2cc(F)c(N3CCNCC3)nc21,CIPT 14031002,-,>40 µg/mL
CC(C)N=c1cc2n(-c3ccc(Cl)cc3)c3ccccc3nc-2cc1Nc1ccc(Cl)cc1,SK46/HIV+,-,2 µg/mL
CC[C@@H](CO)NCCN[C@@H](CC)CO,1168,-,16 µg/mL
CO[C@H]1/C=C/O[C@@]2(C)Oc3c(C)c(O)c4c(O)c(c(/C=N/N5CCN(C6CCCC6)CC5)c(O)c4c3C2=O)NC(=O)/C(C)=C\C=C\[C@H](C)[C@H](O)[C@@H](C)[C@@H](O)[C@@H](C)[C@H](OC(C)=O)[C@@H]1C,Serotype 8,-,5 µg/mL
NCC[C@H](O)C(=O)N[C@@H]1C[C@H](N)[C@@H](O[C@H]2O[C@H](CN)[C@@H](O)[C@H](O)[C@H]2O)[C@H](O)[C@H]1O[C@H]1O[C@H](CO)[C@@H](O)[C@H](N)[C@H]1O,1110/HIV-,-,2 µg/mL
NC[C@H]1O[C@H](O[C@H]2[C@H](O)[C@@H](O[C@H]3O[C@H](CO)[C@@H](O)[C@H](N)[C@H]3O)[C@H](N)C[C@@H]2N)[C@H](O)[C@@H](O)[C@@H]1O,Isolate 135,-,25 µg/mL
S=c1[nH]c2ccccc2[nH]1,MY330/88,-,1000 µM
CN[C@@H]1[C@H](O[C@H]2[C@H](O[C@H]3[C@H](O)[C@@H](O)[C@H](N=C(N)N)[C@@H](O)[C@@H]3N=C(N)N)O[C@@H](C)[C@]2(O)C=O)O[C@@H](CO)[C@H](O)[C@H]1O,13034 (serotype 18),-,>100 µg/mL
CC[C@H]1OC(=O)[C@H](C)[C@@H](O[C@H]2C[C@@](C)(OC)[C@@H](O)[C@H](C)O2)[C@H](C)[C@@H](O[C@@H]2O[C@H](C)C[C@H](N(C)C)[C@H]2O)[C@](C)(O)C[C@@H](C)C(=O)[C@H](C)[C@@H](O)[C@]1(C)O,3211,-,64 µg/mL
Fc1cccc(Cl)c1CSc1nc2ccccc2[nH]1,MY330/88,-,62 µM
CC[C@H]1OC(=O)[C@H](C)[C@@H](O[C@H]2C[C@@](C)(OC)[C@@H](O)[C@H](C)O2)[C@H](C)[C@@H](O[C@@H]2O[C@H](C)C[C@H](N(C)C)[C@H]2O)[C@](C)(OC)C[C@@H](C)C(=O)[C@H](C)[C@@H](O)[C@]1(C)O,1069,-,16 µg/mL
NC[C@@H]1O[C@H](O[C@H]2[C@@H](O)[C@H](O[C@@H]3[C@@H](O)[C@H](N)C[C@H](N)[C@H]3O[C@H]3O[C@H](CO)[C@@H](O)C[C@H]3N)O[C@@H]2CO)[C@H](N)[C@@H](O)[C@@H]1O[C@H]1O[C@H](CO)[C@@H](O)[C@H](O)[C@@H]1O,TMC 1403,-,0.39 µg/mL
C=CCSc1nc2ccccc2[nH]1,MY330/88,-,1000 µM
CC1CN(c2c(F)cc3c(=O)c(C(=O)O)cn(C4CC4)c3c2F)C(C)CN1,1760694,-,4 µg/mL
NC[C@H]1O[C@H](O[C@H]2[C@H](O)[C@@H](O[C@H]3O[C@H](CO)[C@@H](O)[C@H](N)[C@H]3O)[C@H](N)C[C@@H]2N)[C@H](O)[C@@H](O)[C@@H]1O,N-966 (HIV+),-,8 µg/mL
O=C(O)c1cn(C2CC2)c2c(F)c(N3CCC(N4CCCC4)C3)c(F)cc2c1=O,1760694,-,8 µg/mL
CC(C)N=c1cc2n(-c3ccc(Cl)cc3)c3ccccc3nc-2cc1Nc1ccc(Cl)cc1,711/HIV-,-,0.25 µg/mL
Fc1ccccc1CSc1nc2ccccc2[nH]1,MY330/88,-,>125 µM
CNC1CCN(c2c(F)cc3c(=O)c(C(=O)O)cn(C4CC4)c3c2F)C1,1172733,-,2 µg/mL
CC[C@@H](CO)NCCN[C@@H](CC)CO,3215,-,16 µg/mL
CCNCC1CN(c2c(F)cc3c(=O)c(C(=O)O)cn(C4CC4)c3c2F)CC1CNCC,1988557,-,32 µg/mL
NCC[C@H](O)C(=O)N[C@@H]1C[C@H](N)[C@@H](O[C@H]2O[C@H](CN)[C@@H](O)[C@H](O)[C@H]2O)[C@H](O)[C@H]1O[C@H]1O[C@H](CO)[C@@H](O)[C@H](N)[C@H]1O,Isolate 135,-,25 µg/mL
CCn1cc(C(=O)O)c(=O)c2cc(F)c(N3CCN(C)CC3)cc21,CIPT 14031005,-,40 µg/mL
C[C@@H]1CN(c2c(F)c(N)c3c(=O)c(C(=O)O)cn(C4CC4)c3c2F)C[C@H](C)N1,23,broth dilution,0.5 µg/mL
CCCCCCCCCCCCCCCCSc1nc2ccccc2[nH]1,MY330/88,-,>250 µM
CC1CN(c2cc3c(cc2F)c(=O)c(C(=O)O)cn3-c2ccc(F)cc2F)CCN1,3217,-,4 µg/mL
Fc1ccc(CSc2nc3ccccc3[nH]2)cc1F,MY330/88,-,32 µM
NC[C@H]1O[C@H](O[C@H]2[C@H](O)[C@@H](O[C@H]3O[C@H](CO)[C@@H](O)[C@H](N)[C@H]3O)[C@H](N)C[C@@H]2N)[C@H](O)[C@@H](O)[C@@H]1O,Isolate C-48,-,≥400 µg/mL
CO[C@H]1/C=C/O[C@@]2(C)Oc3c(C)c(O)c4c(O)c(c(/C=N/N5CCN(C)CC5)c(O)c4c3C2=O)NC(=O)/C(C)=C\C=C\[C@H](C)[C@H](O)[C@@H](C)[C@@H](O)[C@@H](C)[C@H](OC(C)=O)[C@@H]1C,CIPT 140310003 (rough),-,0.1 µg/mL
CO[C@H]1/C=C/O[C@@]2(C)Oc3c(C)c(O)c4c(O)c(c(/C=N/N5CCN(C/C=C/c6ccccc6)CC5)c(O)c4c3C2=O)NC(=O)/C(C)=C\C=C\[C@H](C)[C@H](O)[C@@H](C)[C@@H](O)[C@@H](C)[C@H](OC(C)=O)[C@@H]1C,PLR3,-,0.03 µg/mL
CC[C@@H](CO)NCCN[C@@H](CC)CO,13016 (serotype 4),-,0.8 µg/mL

5 of the rows above, restated:

SMILES,strain or isolate,read by,result
CNC1CCN(c2c(F)cc3c(=O)c(C(=O)O)cn(C4CC4)c3c2F)C1,1172733,-,2 µg/mL
CC1CN(c2c(F)cc3c(=O)c(C(=O)O)cn(C4CC4)c3c2F)C(C)CN1,1760694,-,4 µg/mL
CO[C@H]1/C=C/O[C@@]2(C)Oc3c(C)c(O)c4c(O)c(c(/C=N/N5CCN(C)CC5)c(O)c4c3C2=O)NC(=O)/C(C)=C\C=C\[C@H](C)[C@H](O)[C@@H](C)[C@@H](O)[C@@H](C)[C@H](OC(C)=O)[C@@H]1C,CIPT 140310003 (rough),-,0.1 µg/mL
CC[C@H]1OC(=O)[C@H](C)[C@@H](O[C@H]2C[C@@](C)(OC)[C@@H](O)[C@H](C)O2)[C@H](C)[C@@H](O[C@@H]2O[C@H](C)C[C@H](N(C)C)[C@H]2O)[C@](C)(OC)C[C@@H](C)C(=O)[C@H](C)[C@@H](O)[C@]1(C)O,1069,-,16 µg/mL
C[C@@H]1CN(c2c(F)c(N)c3c(=O)c(C(=O)O)cn(C4CC4)c3c2F)C[C@H](C)N1,23,broth dilution,0.5 µg/mL